According to ChEMBL document CHEMBL3885881, “DrugMatrix”:

Organism: Rattus norvegicus
Experiment: DrugMatrix - Regimen: Daily Repeat
Type: toxicity, organism-based, Sprague-Dawley
Set-up: regimen Daily Repeat, gender Male, age 6-8 weeks
Details: in vivo, po, 72 h, tissue Blood, route oral GAVAGE, time 3 day, vehicle 100 % WATER

Sequence: STANNOUS FLUORIDE
- MONOCYTE (9 mg/kg, dose level Low): 2.33%
- MONOCYTE (90 mg/kg, dose level High): 2.33%
